Consider 1 substance from PMC6267092.

For data set [1], the system named is CCCC(=O)Oc1ccc([N+](=O)[O-])cc1. Put plainly: purified protein. As to conditions: 30 °C, Hill coefficient 3.12 ± 0.662, kcat apparent.
For data set [2], the system named is CC(=O)Oc1ccc([N+](=O)[O-])cc1. The experiment in a line: purified protein. As to conditions: 30 °C, Hill coefficient 2.09 ± 0.363, kcat apparent.

“LdtP (His6X-LdtP; CLIBASIA_01175) (Candidatus Liberibacter asiaticus str. gxpsy)”: in data set [1], the K0.5 was found to be 0.44 ± 0.032 mM, the Vmax is 0.16 µmol/min/mg, the kcat worked out at 0.13 s⁻¹ and the kcat/Km is 288 M⁻¹ s⁻¹. Also, in data set [2], the K0.5 is on record as 0.44 ± 0.035 mM, the Vmax was found to be 0.67 µmol/min/mg, the kcat worked out at 0.54 s⁻¹ and the kcat/Km was determined as 1240 M⁻¹ s⁻¹.
